tested on: HCV; test: Inhibition effects of compounds on HCV in Huh7.5 cultured cell after HCV infection; format: cell-based
Protocol: 1×10^5/ml Huh7.5 cells (purchased from Vertex Pharmaceutical Co., USA) were inoculated in an amount of 0.1 ml on 96-well culture plate, placed in an incubator with 37° C., 5% CO2 content and saturation humidity, and cultured for 24 h, HCV virus in 45 IU/cell was used to infect Huh7.5, different drug solutions (DM122) formulated with culture medium were added, and cell control and HCV infection control were set. Cultivation was continuously performed in the incubator with 37° C., 5% CO2 content and saturation humidity for 72 h, kit for RNA extraction was used to extract intracellular RNA, one-step qRT-PCR was used to determine intracellular contents of HCV and GAPDH RNA, and the inhibition effects of drug on HCV infection was analyzed. […] In comparison with the virus control group, the inhibition effects on HCV infection upon action of different drugs were analyzed. […] This experiment was repeated for 3 times, * indicated […] in comparison with control, ** indicated p<0.01 in comparison with control.

Row | Compound | SI (selectivity index, CC50/EC50)
1 | Cc1ccc(C(=O)N2CC3CCCN4CCCC(C34)C2CCCC(=O)O)cc1 [Compound L7, (5R)—N-(p-methylbenzoyl)matrinic acid] | >3.42
2 | COc1ccc(S(=O)(=O)N2CC3CCCN4CCCC(C34)C2CCCC(=O)O)cc1 (stereo not shown) [DM-103, N-(4-methoxybenzenesulfonyl) matrinic acid] | >7.37
3 | COc1ccc(CN2CC3CCCN4CCCC(C2CCCC(=O)O)C34)cc1 (stereo not shown) [DM-122, N-(4-methoxybenzyl) matrinic acid] | >3.96
4 | O=C(O)CCC[C@@H]1[C@H]2CCCN3CCC[C@@H](CN1Cc1ccc([N+](=O)[O-])cc1)[C@@H]23 [DM-123, N-(4-nitrobenzyl) matrinic acid] | 4.36
5 | O=C(O)CCCC1C2CCCN3CCCC(CN1Cc1ccccc1Cl)C23 (stereo not shown) [DM-124, N-(2-chlorobenzyl) matrinic acid] | 7.39
6 | O=C(O)CCCC1C2CCCN3CCCC(CN1Cc1cccc(Cl)c1)C23 (stereo not shown) [DM-125, N-(3-chlorobenzyl) matrinic acid] | >29.1
7 | O=C(O)CCCC1C2CCCN3CCCC(CN1Cc1ccc(Cl)cc1)C23 (stereo not shown) [DM-126, N-(4-chlorobenzyl) matrinic acid] | >47.4
8 | O=C(O)CCC[C@@H]1[C@H]2CCCN3CCC[C@@H](CN1Cc1ccc(Cl)c(Cl)c1)[C@@H]23 [DM-127, N-(3,4-dichlorobenzyl) matrinic acid] | 3.76
9 | O=C(O)CCCC1C2CCCN3CCCC(CN1Cc1ccc(Br)cc1)C23 (stereo not shown) [DM-128, N-(4-bromobenzyl) matrinic acid] | 10.36
10 | O=C(O)CCCC1C2CCCN3CCCC(CN1Cc1cccc(Cl)c1Cl)C23 (stereo not shown) [DM-129, N-(2,3-dichlorobenzyl) matrinic acid] | 1.28
11 | Cc1ccc([N+](=O)[O-])cc1C(=O)N1C[C@@H]2CCCN3CCC[C@@H]([C@H]23)[C@H]1CCCC(=O)O [DM-131, N-(2-methyl-5-nitrobenzoyl) matrinic acid] | >11.2
12 | O=C(O)CCCC1C2CCCN3CCCC(CN1Cc1ccc(F)cc1)C23 (stereo not shown) [DM-132, N-(4-fluorobenzyl) matrinic acid] | 17.09
13 | O=C(O)CCCC1C2CCCN3CCCC(CN1Cc1cccc(F)c1)C23 (stereo not shown) [DM-133, N-(3-fluorobenzyl) matrinic acid] | 7.84
14 | N#Cc1ccc(CN2C[C@@H]3CCCN4CCC[C@@H]([C@H]34)[C@H]2CCCC(=O)O)cc1 [DM-134, N-(4-cyanobenzyl) matrinic acid] | >19.16
15 | O=C(O)CCC[C@@H]1[C@H]2CCCN3CCC[C@@H](CN1Cc1ccccc1F)[C@@H]23 [DM-135, N-(2-fluorobenzyl)matrinic acid] | 20.8
16 | O=C(O)CCCC1C2CCCN3CCCC(CN1Cc1cccc([N+](=O)[O-])c1)C23 (stereo not shown) [DM-137, N-(3-nitrobenzyl) matrinic acid] | >38.2

Row | Compound | SI (selectivity index, CC50/EC50)
17 | Cc1ccccc1CN1CC2CCCN3CCCC(C1CCCC(=O)O)C23 (stereo not shown) [DM-138, N-(2-methylbenzyl) matrinic acid] | 5.07
18 | Cc1cccc(CN2CC3CCCN4CCCC(C2CCCC(=O)O)C34)c1 (stereo not shown) [DM-139, N-(3-methylbenzyl) matrinic acid] | 8.97
19 | Cc1ccc(CN2CC3CCCN4CCCC(C2CCCC(=O)O)C34)cc1 (stereo not shown) [DM-140, N-(4-methylbenzyl) matrinic acid] | >53.5
20 | O=C(O)CCCC1C2CCCN3CCCC(CN1Cc1ccccn1)C23 (stereo not shown) [DM-143, N-(pyridin-2-yl) methyl matrinic acid] | 30.06
21 | O=C(O)CCCC1C2CCCN3CCCC(CN1Cc1cccnc1)C23 (stereo not shown) [DM-144, N-(pyridin-3-yl) methyl matrinic acid] | >31.4
22 | O=C(O)CCCC1C2CCCN3CCCC(CN1Cc1ccncc1)C23 (stereo not shown) [DM-145, N-(pyridin-4-yl)methyl matrinic acid] | >8.5
23 | O=C(O)CCC[C@@H]1[C@H]2CCCN3CCC[C@@H](CN1Cc1cscn1)[C@@H]23 [DM-146, N-(thiazol-4-yl)methyl matrinic acid] | >15.6
24 | O=C(O)CCCC1C2CCCN3CCCC(CN1Cc1cccc4ccccc14)C23 (stereo not shown) [DM-148, N-(naphthyl-1-yl) methyl matrinic acid] | <1.6
25 | N#Cc1ccc(C(=O)N2CC3CCCN4CCCC(C34)C2CCCC(=O)O)cc1 (stereo not shown) [DM-152, N-(4-cyanobenzoyl) matrinic acid] | >7.96
26 | O=C(O)CCCC1C2CCCN3CCCC(CN1C(=O)c1ccc(F)cc1)C23 (stereo not shown) [DM-154, N-(4-fluorobenzoyl) matrinic acid] | 3
27 | O=C(O)CCC[C@@H]1[C@H]2CCCN3CCC[C@@H](CN1C(=O)c1ccc(C(F)(F)F)cc1)[C@@H]23 [DM-155, N-(4-trifluoromethylbenzoyl) matrinic acid] | 3
28 | O=C(O)CCC[C@@H]1[C@H]2CCCN3CCC[C@@H](CN1Cc1ccc(OC(F)(F)F)cc1)[C@@H]23 [DM-162, N-(4-trifluoromethoxybenzyl) matrinic acid] | 12.67
29 | O=C(O)C=CCC1C2CCCN3CCCC(CN1S(=O)(=O)c1ccc(C(F)(F)F)cc1)C23 (stereo not shown) [SC-84a, N-(p-trifluoromethylbenzene sulfonyl) sophocarpinic acid] | 70.3
30 | N#Cc1cccc(S(=O)(=O)N2CC3CCCN4CCCC(C34)C2CC=CC(=O)O)c1 (stereo not shown) [SC-89b, N-(m-cyanobenzenesulfonyl) sophocarpinic acid] | 30.9
31 | N-(4-ethenyl benzyl) matrinic acid [DM-136] | 39.2

From patent US20130190345A1, “MATRINIC ACID/MATRINE DERIVATIVES AND PREPARATION METHODS AND USES THEREOF” (priority 2010, published 2013)
